Source: US20220387579A1

Legend:
[1] = biological target: EBOV/Mak GP (UniProt P87666); test: SPR
[2] = biological target: Ebola (UniProt P87666); test: ELISA

## KZ52
[1]
  Kd: 2.36 nM
[2]
  EC50: 0.34 µg/mL
